From patent US20200306295A1, “METHOD AND DEVICE FOR ANNIHILATION OF Staphylococcus aureus” (priority 2017, published 2020)

System: MRSA
Type: cell-based, S. aureus
Details: 48-day serial passage, sub-MIC antibiotic with 10 min laser
Experimental: To understand whether laser treatment could cause genotypic or phenotypic change in MRSA, and whether STX photolysis could reduce the resistance development for conventional antibiotics, a serial passage study for each treatment scenario was conducted. The initial generation (Day 1) used in this study was stationary-phase MRSA. The sample was prepared, washed and resuspended in 1×PBS at its original concentration. An aliquot (5 μl) of the MRSA suspension was transferred onto a glass cover slide as a droplet of ˜5 mm in diameter with or without 10 min laser treatment (1 cm diameter illumination area, 120 mW). The droplets were then collected and resuspended into 5 ml of TSB medium (1:1000 dilution) with an estimated cell concentration of 10^5 CFU/ml. To study resistance development or selection induced by laser treatment alone, three groups were included: a group without laser treatment (SPO), a group with laser treatment (SPL1), and another independent group with laser treatment as a duplicate (SPL2). […] These well plates were incubated in a shaker at 37° C. and 200 rpm for 18 hours followed by OD600 measurement by a plate reader. […] An aliquot (1 μl) was transferred and then sandwiched between two glass cover slides for STX quantification by resonance Raman spectroscopy.

Cc1onc(-c2ccccc2)c1C(=O)N[C@@H]1C(=O)N2[C@@H]1SC(C)(C)[C@@H]2C(=O)O [Oxacillin, oxacillin]
resistance development with laser treatment: Delayed resistance development
